Starred links: 1 amine or outer side, 2 acyl side, 3 side chain; linkers in the order of their positions; H or OH if unused. Non-standard residues stand in square brackets, D forms with d. Residues, ends and D or L forms follow the SMILES beside them. Trp(1-CMe2(2S-oxiranyl)) = CC(C)([C@H]1CO1)n1cc(C[C@H](N)C(=O)O)c2ccccc21; Trp(1-(1,1-Me2-allyl)) = C=CC(C)(C)n1cc(C[C@H](N)C(=O)O)c2ccccc21; X3 = CC(C)([C@H](O)CCl)n1cc(C[C@H](N[*:1])C(=O)[*:2])c2ccccc21; Tyr(3-NO2) = N[C@@H](Cc1ccc(O)c([N+](=O)[O-])c1)C(=O)O; X1 = COC(OC)C(C)C[C@@H](C(=O)[*:2])N(C)[*:1]; X2 = C[C@H](CO)C[C@@H](C(=O)[*:2])N(C)[*:1]; Gly(E-crotyl) = C/C=C/C[C@H](N)C(=O)O; NMeL = CN[C@@H](CC(C)C)C(=O)O
Tested on: Vero cells (ATCC CRL-81)
Type: cell-based
Conditions: Vero IC50 / M. tb H37Rv MIC

Question: For `C/C=C/C[C@@H]1NC(=O)[C@H](CC(C)C)NC(=O)[C@H](C[C@H](C)CO)N(C)C(=O)[C@H](C)NC(=O)[C@H](Cc2ccc(O)c([N+](=O)[O-])c2)NC(=O)[C@H](CC(C)C)N(C)C(=O)[C@H](Cc2cn(C(C)(C)[C@H]3CO3)c3ccccc23)NC1=O` [Compound 1, Rufomycin NBZ1], which “SI (selectivity index = IC50/MIC)” value is on record?
Answer: The value was greater than 400.

Question: For `C/C=C/C[C@@H]1NC(=O)[C@H](CC(C)C)NC(=O)[C@H](C[C@@H](C)CO)N(C)C(=O)[C@H](C)NC(=O)[C@H](Cc2ccc(O)c([N+](=O)[O-])c2)NC(=O)[C@H](CC(C)C)N(C)C(=O)[C@H](Cc2cn(C(C)(C)[C@H]3CO3)c3ccccc23)NC1=O` [Compound 2, Rufomycin NBZ2], which “SI (selectivity index = IC50/MIC)” value is on record?
Answer: The value was greater than 227.

Question: `C=CC(C)(C)n1cc(C[C@@H]2NC(=O)[C@H](C/C=C/C)NC(=O)[C@H](CC(C)C)NC(=O)[C@H](C[C@H](C)CO)N(C)C(=O)[C@H](C)NC(=O)[C@H](Cc3ccc(O)c([N+](=O)[O-])c3)NC(=O)[C@H](CC(C)C)N(C)C2=O)c2ccccc21` [Compound 3, Rufomycin NBZ3] (cyclo(A[X2]L[Gly(E-crotyl)][Trp(1-(1,1-Me2-allyl))][NMeL][Tyr(3-NO2)])) was tested. Which “SI (selectivity index = IC50/MIC)” value did it give?
Answer: The value was greater than 119.

Question: With `C=CC(C)(C)n1cc(C[C@@H]2NC(=O)[C@H](C/C=C/C)NC(=O)[C@H](CC(C)C)NC(=O)[C@H](CC(C)C)N(C)C(=O)[C@H](C)NC(=O)[C@H](Cc3ccc(O)cc3)NC(=O)[C@H](CC(C)C)N(C)C2=O)c2ccccc21` [Compound 4, Rufomycin NBZ4] (HELM PEPTIDE1{A.[meL].L.[C/C=C/C[C@H](N[*:1])C(=O)[*:2]].[C=CC(C)(C)n1cc(C[C@H](N[*:1])C(=O)[*:2])c2ccccc21].[meL].Y}$PEPTIDE1,PEPTIDE1,1:R1-7:R2$$$V2.0) as the compound, how does the “SI (selectivity index = IC50/MIC)” value read?
Answer: Its value is less than 9.

Question: How did the “SI (selectivity index = IC50/MIC)” value turn out when `C/C=C/C[C@@H]1NC(=O)[C@H](CC(C)C)NC(=O)[C@H](CC(C)C(OC)OC)N(C)C(=O)[C@H](C)NC(=O)[C@H](Cc2ccc(O)c([N+](=O)[O-])c2)NC(=O)[C@H](CC(C)C)N(C)C(=O)[C@H](Cc2cn(C(C)(C)[C@H]3CO3)c3ccccc23)NC1=O` (stereo partly drawn) [Compound 5, Rufomycin NBZ5] (cyclo(A[X1]L[Gly(E-crotyl)][Trp(1-CMe2(2S-oxiranyl))][NMeL][Tyr(3-NO2)])) was run?
Answer: The value was greater than 91.

Question: `C/C=C/C[C@@H]1NC(=O)[C@H](CC(C)C)NC(=O)[C@H](CC(C)C)N(C)C(=O)[C@H](C)NC(=O)[C@H](Cc2ccc(O)c([N+](=O)[O-])c2)NC(=O)[C@H](CC(C)C)NC(=O)[C@H](Cc2cn(C(C)(C)[C@H]3CO3)c3ccccc23)NC1=O` [Compound 6, Rufomycin NBZ6] (cyclo(A[NMeL]L[Gly(E-crotyl)][Trp(1-CMe2(2S-oxiranyl))]L[Tyr(3-NO2)])) was tested. Which “SI (selectivity index = IC50/MIC)” value did it give?
Answer: The value was greater than 175.

Question: With `C/C=C/C[C@@H]1NC(=O)[C@H](CC(C)C)N2C(=O)[C@H](C[C@@H](C)[C@H]2O)N(C)C(=O)[C@H](C)NC(=O)[C@H](Cc2ccc(O)c([N+](=O)[O-])c2)NC(=O)[C@H](CC(C)C)N(C)C(=O)[C@H](Cc2cn(C(C)(C)[C@H](O)CO)c3ccccc23)NC1=O` [Compound 7, Rufomycin NBZ7] as the compound, how does the “SI (selectivity index = IC50/MIC)” value read?
Answer: Its value is greater than 1000.

Question: How did the “SI (selectivity index = IC50/MIC)” value turn out when `C/C=C/C[C@@H]1NC(=O)[C@H](CC(C)C)N2C(=O)[C@H](C[C@](C)(O)[C@H]2O)N(C)C(=O)[C@H](C)NC(=O)[C@H](Cc2ccc(O)c([N+](=O)[O-])c2)NC(=O)[C@H](CC(C)C)N(C)C(=O)[C@H](Cc2cn(C(C)(C)[C@H]3CO3)c3ccccc23)NC1=O` [Compound 8, Rufomycin NBZ8] was run?
Answer: Its value is greater than 333.

Question: With `C/C=C/C[C@@H]1NC(=O)[C@H](CC(C)C)NC(=O)[C@H](CC(C)C)N(C)C(=O)[C@H](C)NC(=O)[C@H](Cc2ccc(O)c([N+](=O)[O-])c2)NC(=O)[C@H](CC(C)C)N(C)C(=O)[C@H](Cc2cn(C(C)(C)[C@H](O)CCl)c3ccccc23)NC1=O` [Compound 13] (cyclo(A[NMeL]L[Gly(E-crotyl)][X3][NMeL][Tyr(3-NO2)])) as the compound, how does the “SI (selectivity index = IC50/MIC)” value read?
Answer: The value was greater than 435.

— article PMC7384767 (Journal of natural products, 2020)
